Assay results: PubChem BioAssay AID2842 (Southern Research Institute, 2010)
This is a selection; strong and weak results do not stand in their true shares. The source made the active and inactive calls. How the calls were made is not given here.

Assay: Mycobacterium tuberculosis H37Rv growth inhibition, putative kinase inhibitor library, confirmatory dose response (AID 2842);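 further: bacteria incubated one week before Alamar blue readout; 0% = bacteria only wells and 100% = bacteria with high antibiotic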
Settings: M. tuberculosis H37Rv growth inhibition; hits give high values

| Compound | inhibition |
| --- | --- |
| Cc1n[n+]2c([nH]c1=O)SCC(Br)C2c1ccccc1 (configuration not stated) | inactive: -3.77% |
| CCOc1ccc(Nc2c([N+](=O)[O-])cc(C(F)(F)F)cc2[N+](=O)[O-])c([N+](=O)[O-])c1 | inactive: -15.1% |
